Assay results from publication PMC2751766 (Journal of acquired immune deficiency syndromes (1999), 2009).
Like-named read-outs stand apart in the source and are kept apart here.

Assays:
[1] = type: in vivo, human; conditions: for AUCτ: τ = 12 hours; for AUCτ ratio Day 1 CVF:BP: day 1, single dose; for AUCτ ratio Day 7 CVF:BP: day 7, multiple dose
[2] = CVF protein binding by rapid equilibrium dialysis of pooled day 7 CVF samples; type: in vitro ADME, human
[3] = Safety and tolerability in healthy HIV-negative female volunteers; type: in vivo, human; conditions: maraviroc 300 mg orally twice daily, 7 days
[4] = BP, day 7, 300 mg orally twice daily, n = 10, median (interquartile range)
[5] = CVF, day 7, 300 mg orally twice daily, n = 10, median (interquartile range)
[6] = VT, day 7, 300 mg orally twice daily, composite profile
[7] = median (interquartile range), listed as Maraviroc

maraviroc
Women with detectable BP concentrations ([1]; BP, 1 hour after the first dose (day 1)): 12 of 12 | Cmax ([1]; BP, day 1, single 300 mg oral dose, n = 12, median (interquartile range)): 503 (401–714) ng/mL | Tmax ([1]; BP, day 1, single 300 mg oral dose, n = 12, median (range)): 2 (1–3) h | Cmax [1, 4]: 563 (537–846) ng/mL | Tmax ([1]; BP, day 7, 300 mg orally twice daily, n = 10, median (range)): 3 (1–4) h | AUCτ [1, 4]: 2515 (2188–2783) ng·h/mL | Accumulation in BP over 7 days of dosing ([1]; BP, day 7 vs day 1 AUCτ): 26% | Median protein-free CVF concentration relative to 0.5 ng/mL ([1]; CVF, 1 hour after a single dose): 10 fold | Women in whom CVF concentrations were observed ([1]; CVF, 1 hour after dosing): 50% | Women with detectable CVF concentrations ([1]; CVF, 1 hour after the first dose (day 1)): 6 of 12 | Women in whom CVF concentrations were observed ([1]; CVF, 2 hours after dosing): 100% | Median protein-free CVF concentration relative to 0.5 ng/mL ([1]; CVF, at Cmin under steady state conditions): > 800 fold | Women with detectable CVF concentrations ([1]; CVF, by 2 hours after the first dose (day 1)): 12 of 12 | Cmax ([1]; CVF, day 1, single 300 mg oral dose, n = 12, median (interquartile range)): 694 (291–1283) ng/mL | Tmax ([1]; CVF, day 1, single 300 mg oral dose, n = 12, median (range)): 6 (4–12) h | Cmax [1, 5]: 1230 (409–1810) ng/mL | Tmax ([1]; CVF, day 7, 300 mg orally twice daily, n = 10, median (range)): 6 (0–12) h | AUCτ [1, 5]: 7500 (3078–9090) ng·h/mL | Tmax [1, 6]: 4 h | AUCτ [1, 6]: 4857 ng·h/g | AUCτ ratio Day 7:Day 1 (BP) ([1]; accumulation in BP, median (interquartile range)): 1.26 (1.16–1.30) | AUCτ ratio Day 7:Day 1 (CVF) ([1]; accumulation in CVF, median (interquartile range)): 2.13 (1.16–2.59) | CVF concentrations 72 hours after dose compared with BP concentrations 12 hours after dose ([1]; after the final dose on day 7, terminal elimination): similar | Time by which median CVF concentrations surpassed BP concentrations ([1]; day 1, after the first dose): ≤ 4 h | AUCτ ratio Day 1 CVF:BP ([1]; median (interquartile range)): 1.9 | AUCτ ratio Day 1 CVF:BP [1, 7]: 1.91 (0.82–4.77) | Delay of Tmax in CVF compared with BP ([1]; day 7): 3 h | AUCτ ratio Day 7 CVF:BP ([1]; median (interquartile range)): 2.7 | AUCτ ratio Day 7 CVF:BP [1, 7]: 2.73 (1.0–5.39) | VT exposure as percentage of the CVF exposure ([1]; day 7, AUCτ): approximately 65% | AUCτ ratio Day 7 VT:CVF ([1]; day 7, composite VT AUCτ): 0.65 | AUCτ ratio Day 7 VT:BP ([1]; day 7, composite VT AUCτ divided by median BP AUCτ): 1.9 | CVF concentrations relative to BP ([1]; end of the 12-hour dosing interval after 7 days of dosing): approximately 10 times | Protein binding in CVF, fold lower than BP ([2]; CVF vs BP): approximately 10 fold | CVF protein binding (mean) ([2]; pooled day 7 CVF samples at or close to Cmax, 4 pooled samples, 37°C, 16 hours): 7.6% | EKG abnormalities related to administration ([3]; 12-lead EKG): No EKG abnormalities | Serious adverse events [3]: no serious AEs reported | Adverse event frequency: fatigue ([3]; 12 subjects): 25% | Adverse event frequency: headache ([3]; 12 subjects): 17% | Adverse event frequency: nausea ([3]; 12 subjects): 17%
